# For at least one entry, the source does not settle the construct or the ends of the probe.
# Legend:
# [1] = tested on: EBNA-1 DNA-binding domain derivative (dnEBNA1/Softag1) (Epstein-Barr virus); assay: EMSA; details: 1.6 nM protein, room temperature, 30 min; protein details: Softag1 epitope; label: end-labeled
# [2] = tested on: EBNA-1 DNA-binding domain derivative (dnEBNA1/Softag1) (Epstein-Barr virus); assay: competition with a labelled probe; details: competitive EMSA, protein details: Softag1 epitope
Sequence,binding result [2],other results
GATAGCATATGCTACC (double strand) [single EBNA-1 site from FR (probe)],–,binding result [1]: binds
GATATCGCTGTTCCTTAGGACCCTTTTACTAACCCTAATTCGATAGCATATGCTTCCCGTTGGGTAACATATGCTATTGAATTAGGGTTAGTCTGGATAGTATATACTACTACCCGGGAAGCATATGCTACCCGTTTAGGGTTAACAAGCTTGATATC (double strand) [wtDS],–,binding result ([2]; 4xFRbs > wtDS or 4xSiteIIIbs > 2x(DS 1+2) or SWWS >> 4xRep*bs): binds
GCCGGCGATCGATCGATAGTATATACTACTACCCGGGAAGCATATGCTACCGATCGATCACTAGCATCGATAGTATATACTACTACCCGGGAAGCATATGCTACCGATCGATCACTAGT (double strand) [2x(DS 1+2)],binds,–
GCCGGCGATCGATCGATAGTATATACTACTACCCGGGAAGCATATGCTACCGATCGATCACTAGCATCGATAGTATATACTACTACCCGGGAAGCATATGCTACCGATCGATCACTAGT (double strand) [4xFRbs],binds,–
GCCGGCGATCGATCGATAGTATATACTACTACCCGGGAAGCATATGCTACCGATCGATCACTAGCATCGATAGTATATACTACTACCCGGGAAGCATATGCTACCGATCGATCACTAGT (double strand) [4xSiteIIIbs],binds,–
GCCGGCGATCGATCGATAGTATATACTACTACCCGGGAAGCATATGCTACCGATCGATCACTAGCATCGATAGTATATACTACTACCCGGGAAGCATATGCTACCGATCGATCACTAGT (double strand) [S-W-W-S],binds,–

# From US20090203545
